Data on three molecules can be found in patent US5491135A (priority 1993, dated 1996).

For data set [1], the system named is simian varicella virus. The data set can be described thus: Simian varicella virus infection in African green monkeys. As to conditions: monkey, in vivo. On the procedure: Fifteen African green monkeys were weighed and bled for clinical chemistry hematology baselines. […] Each of the 15 monkeys were infected with simian varicella virus by intratracheal inoculation of 3.7×10^4 plaque forming units (PFU) of simian varicella virus. […] Control monkeys, service as infection controls, received twice daily intravenous injections of phosphate buffered saline administered at 1.0 ml/kg of body weight. A second group of three monkeys received PALA at 50 mg/kg/day given by intravenous bolus injection into the saphenous vein. A third group was given a lower dose of PALA at 20 mg/kg/day administered in a similar manner. […]
Acyclovir received as a gift from Burroughs Wellcome was weighed out as a 200 mg quantity. […]
The clinical course of simian varicella infection was followed by collection of 2 ml of blood in heparin on day 2, 5, 7, 9 and 11 post-inoculation. […] When dried the number of plaques in each flask were counted and the mean number of plaques between the two paired flasks were determined and expressed as a quantitation of viremia per ml of blood.
Rash was evaluated daily using a subjective scoring of severity from ± to 4+. […] General clinical condition was assessed daily and anorexia noted by counting the number of food biscuits consumed daily. […]
At 14 and 21 days after virus inoculation, blood was taken and the serum separated for quantitation of antibody. […]

Data set [2] has as its system respiratory syncytial virus (RSV). Put plainly: RSV infection in cotton rats, lung titre. The class given is in vivo, cotton rat. An excerpt: 1. 50 to 100 g cotton rats of either sex inoculated i.n. with RS A2 (pool 8-28-92) on day 0.
2. On day +1 animals were given placebo or PALA as follows:
3. All animals killed on day +4 and their lungs tested for RSV levels.

Take `Nc1nc2c(ncn2COCCO)c(=O)[nH]1` [Acyclovir, reference compound]: in data set [1], the “serum neutralizing antibody titer vs control” value is recorded as “comparable”. With `O=C(O)C[C@H](NC(=O)CP(=O)(O)O)C(=O)O` [PALA], the “serum neutralizing antibody titer vs control” value in data set [1] is “comparable”. Further, the “Mean rank (Newman-Keuls)” value in data set [2] (PALA 3 mg/kg/day i.p.) was found to be 9.5000; in data set [2] (PALA 10 mg/kg/day i.p.), 4.6250. Turning to `NC(=O)c1ncn([C@@H]2O[C@H](CO)[C@@H](O)[C@H]2O)n1` [RIBAVIRIN, reference compound], the “Mean rank (Newman-Keuls)” value in data set [2] (ribavirin 90 mg/kg/day as printed) came to 8.5000.
